Legend:
[1] = target: T1, PLY-C428A (Streptococcus pneumoniae, UniProt Q7ZAK5, C428A); conditions: 2, 4 and 8 µM
[2] = target: T1, PLY-C428A; conditions: 6 µM

Cc1cc(C)cc(N2C(=O)NC(=O)/C(=C\c3ccc(-c4ccc(Cl)cc4Cl)o3)C2=O)c1 [PB-3]
BLI response on immobilized PLY-C428A [1]: no response
Activity against PLY-C428A in LDH assay [2]: inactive

Reference: PMC11053136 (Nature Communications, 2024)
